Anti-infective test results gathered from many reports (values: NIAID ChemDB through PubChem).

Shared fields: whole-cell or culture tests; organism: Influenza A virus; measure: EC50

Rows are shuffled and stem from different studies. ECn: concentration that inhibits the pathogen or its effect by n%.

CCC(CC)[C@H](NC(C)=O)[C@@H]1C[C@@H](C(=O)O)C[C@H]1N=C(N)N ; cell line: MDCK ; strain or isolate: H5N1 A/gull/PA/4175/83 ; value: 0.03 µM
CCCN(CCc1ccc(Cc2ccccc2)cc1)C(=O)[C@@H]1OC(C(=O)O)=C[C@H](N)[C@H]1NC(C)=O ; strain or isolate: A/Singapore/1/57 ; value: <0.0001 µg/mL
CC(=O)N[C@H]1[C@H]([C@H](O)[C@H](O)CO)OC(C(=O)O)=C[C@@H]1N=C(N)N ; cell line: MDCK ; strain or isolate: H5N1 A/duck/MN/1525/81 ; value: 0.2 µM
C#C[C@H](O)C1=C[C@@H](n2cnc3c(N)ncnc32)[C@H](O)[C@@H]1O ; cell line: MDCK ; strain or isolate: H2N2 JAPAN 57 ; value: >50 µg/mL
CCCN(CCCc1ccccc1)C(=O)[C@@H]1OC(C(=O)O)=C[C@H](N)[C@H]1NC(C)=O ; strain or isolate: A/Singapore/1/57 ; value: 0.001 µg/mL
[N-]=C=Nc1nncs1 ; cell line: CEF ; strain or isolate: H7N7 A/Weybridge ; value: >32 µg/mL
CC(=O)N[C@H]1[C@H]([C@H](O)[C@H](O)CO)OC(C(=O)O)=C[C@@H]1N=C(N)N ; cell line: MDCK ; strain or isolate: H7N2 A/turkey/England/192-329/79 ; value: 0.08 µM
C=C[C@H](O)C1=C[C@@H](n2cnc3c(N)ncnc32)[C@H](O)[C@@H]1O ; cell line: MDCK ; strain or isolate: H2N2 JAPAN 57 ; value: >250 µg/mL
CCCN(CCc1cccc(-c2ccccc2)c1)C(=O)[C@@H]1OC(C(=O)O)=C[C@H](N)[C@H]1NC(C)=O ; strain or isolate: A/Singapore/1/57 ; value: 0.0003 µg/mL
C/C=C\[C@@H]1C[C@H](C(=O)O)N[C@H]1[C@@H](NC(C)=O)[C@](C)(CCC)OC ; cell line: MDCK ; strain or isolate: H3N2 TOKYO/3/67 ; value: 0.0059 µM
CC(N)C12CC3CC(CC(C3)C1)C2 ; cell line: CEF ; strain or isolate: A/Rostock ; value: <0.1 µM
CCCC(CCC)C(NC(C)=O)C1CC(C(=O)O)CC1N=C(N)N ; cell line: MDCK ; strain or isolate: H5N1 A/gull/PA/4175/83 ; value: 0.02 µM
C#C[C@@H](O)C1=C[C@@H](n2cnc3c(N)ncnc32)[C@H](O)[C@@H]1O ; cell line: MDCK ; strain or isolate: H2N2 JAPAN 57 ; value: >50 µg/mL
CC(=O)N[C@@H]1[C@@H](N)C=C(C(=O)O)O[C@H]1C(=O)N(CCc1ccccc1)CC(=O)O ; strain or isolate: A/Singapore/1/57 ; value: 0.95 µg/mL

The last 2 rows once more:

{"compound": "C#C[C@@H](O)C1=C[C@@H](n2cnc3c(N)ncnc32)[C@H](O)[C@@H]1O", "cell line": "MDCK", "strain or isolate": "H2N2 JAPAN 57", "value": ">50 µg/mL"}
{"compound": "CC(=O)N[C@@H]1[C@@H](N)C=C(C(=O)O)O[C@H]1C(=O)N(CCc1ccccc1)CC(=O)O", "strain or isolate": "A/Singapore/1/57", "value": "0.95 µg/mL"}